Earlier results in EP0692191A1, “UTILIZATION OF PHENYL COMPOUNDS FOR THE CONTROL OF PHYTOPARASITE NEMATODES” (UNIVERSIDAD DE LA LAGUNA, priority 1993, dated 1995).

Details: comparison values on the scale of Repeto; cited from earlier work

Substance: CINa
- toxisches Potential pT50: 1,35
